Marks after values point to notes of the source that are not given here.
Key:
RhlR [1] = biological target: T1, RhlR (Pseudomonas aeruginosa, UniProt P54292); assay: E. coli RhlR reporter antagonism assay vs 10 μM BHL (JLD271/pJN105R2/pSC11-rhlI*); format: cell-based, P. aeruginosa; conditions: negative = agonism stronger than 10 μM BHL alone; for % inhibition (10 μM): compound at 10 μM in the presence of 10 μM BHL; for % inhibition (1 mM): compound at 1 mM in the presence of 10 μM BHL
RhlR [2] = biological target: T1, RhlR; assay: P. aeruginosa RhlR reporter agonism assay (PAO-JP2/prhlI-LVAgfp); format: cell-based; conditions: highest activation at any concentration, relative to 1 mM BHL
Procedure: All media and reagents for bacterial culture were purchased from commercial sources. Bacteria were cultured in Luria-Bertani broth (LB) at 37° C. with shaking at 200 rpm unless otherwise noted. The bacterial reporter strains used for this study were (i) the heterologous E. coli strain JLD271 (ΔsdiA) harboring the RhlR expression plasmid pJN105R2 and the rhlI-lacZ transcriptional fusion reporter pSC11-rhlI*, (ii) the heterologous E. coli strain JLD271 (ΔsdiA) harboring the LasR expression plasmid pJN105L and the […] transcriptional fusion reporter pSC11, and (iii) the P. aeruginosa strain PAO-JP2 (ΔlasrhlI) harboring the rhlI-gfp transcriptional fusion reporter prhlI-LVAgfp. Reporter strains JLD271/pJN105R2/pSC11-rhlI* and JLD271/pJN105L/pSC11 were grown in LB containing 100 μg/mL ampicillin and 10 μg/mL gentamicin. […]
Plates were incubated at 37° C. for 6 h, and GFP production was monitored by using a Synergy 2 plate reader (λex=500 nm, λem=540 nm; BioTek, Winooski, Vt.) and quantified with Gen5 1.05 software (BioTek). The final OD600 for each well was measured to normalize GFP production to cell density. […]
Library compounds J18 and J24, as well as controls BHL and S4, were evaluated for potency in the native genetic background of RhlR by using the P. aeruginosa strain PAO-JP2 (ΔlasIrhlI) harboring the RhlR reporter plasmid prhlI-LVAgfp (Table 3). […]

By UniProt entry, the sequences of proteins in these tests, tags left out.
UniProt P54292, whole entry: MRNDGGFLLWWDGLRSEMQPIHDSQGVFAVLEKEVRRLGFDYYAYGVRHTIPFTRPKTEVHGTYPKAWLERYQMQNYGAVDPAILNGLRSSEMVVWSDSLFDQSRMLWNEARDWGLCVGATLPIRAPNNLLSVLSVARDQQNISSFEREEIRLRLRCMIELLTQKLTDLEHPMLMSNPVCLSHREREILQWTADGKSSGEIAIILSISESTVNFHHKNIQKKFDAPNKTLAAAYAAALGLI
UniProt P25084, whole entry: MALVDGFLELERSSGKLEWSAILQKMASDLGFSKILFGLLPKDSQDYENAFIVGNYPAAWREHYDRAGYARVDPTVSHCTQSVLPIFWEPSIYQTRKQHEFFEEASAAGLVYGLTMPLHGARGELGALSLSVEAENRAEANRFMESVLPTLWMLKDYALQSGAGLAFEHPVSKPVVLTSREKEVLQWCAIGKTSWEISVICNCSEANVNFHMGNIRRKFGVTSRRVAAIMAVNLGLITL

RhlR [3] = biological target: T1, RhlR; assay: as above; format: cell-based; conditions: read-out: EC50 for RhlR activation, 100 nM OdDHL present
LasR = LasR (Pseudomonas aeruginosa, UniProt P25084); assay: Selectivity of RhlR agonism over LasR agonism (E. coli LasR reporter JLD271/pJN105L/pSC11); format: cell-based, P. aeruginosa; conditions: RhlR % activity divided by LasR % activity, > = negligible activity in LasR reporter
Procedure: (§1) All media and reagents for bacterial culture were purchased from commercial sources. Bacteria were cultured in Luria-Bertani broth (LB) at 37° C. with shaking at 200 rpm unless otherwise noted. The bacterial reporter strains used for this study were (i) the heterologous E. coli strain JLD271 (ΔsdiA) harboring the RhlR expression plasmid pJN105R2 and the rhlI-lacZ transcriptional fusion reporter pSC11-rhlI*, (ii) the heterologous E. coli strain JLD271 (ΔsdiA) harboring the LasR expression plasmid pJN105L and the […] transcriptional fusion reporter pSC11, and (iii) the P. aeruginosa strain PAO-JP2 (ΔlasrhlI) harboring the rhlI-gfp transcriptional fusion reporter prhlI-LVAgfp. Reporter strains JLD271/pJN105R2/pSC11-rhlI* and JLD271/pJN105L/pSC11 were grown in LB containing 100 μg/mL ampicillin and 10 μg/mL gentamicin. Freezer stocks of bacterial strains were maintained at −80° C. in 1:1 LB:50% glycerol.
(§2) To evaluate the modulatory activities of library compounds on RhlR and LasR using E. coli reporters, the strains JLD271/pJN105R2/pSC11-rhlI* and JLD271/pJN105L/pSC11 were used, respectively, as previously described.^38, 51 The following modifications were used in the RhlR agonism reporter assay, non-native compounds (10 μM or 1 mM) were compared to 1 mM BHL as the positive control. Briefly, a subculture was prepared by diluting an overnight culture 1:10 with fresh media containing 100 μg/mL ampicillin and 10 μg/mL gentamicin, and was incubated until it had grown to OD600=0.45. In all assays, L-arabinose was added to a final concentration of 4 mg/mL to induce RhlR expression. For RhlR agonism assays, activities of test compounds were measured relative to 1 mM BHL (the concentration required to induce a maximal level of RhlR activity). For RhlR antagonism assays, test compounds were competed against a concentration of BHL approximately equal to its EC50 value (10 μM). Activity was measured relative to 10 μM BHL. Inhibition was calculated by subtracting 100% from the relative activity value. Thus, 0% inhibition mimics represents no competitive displacement of 10 μM BHL by a test compound. In all assays, modifications were made to the standard Miller assay protocol to accommodate the use of the chlorophenol red-β-D-galactopyranoside (CPRG) β-galactosidase substrate. After cell lysis, 150 μL of the aqueous layer was transferred from each well of a solvent-resistant 96-well microtiter plate to the wells of a new clear, flat-bottom 96-well microtiter plate. CPRG (4 mg/mL in phosphate-buffered saline) was added to each well in 25 μL volumes. Plates were incubated at 30° C. until the positive control wells developed a red color (approximately 30 min). The amount of processed CPRG substrate was assessed by measuring the absorbance of each well at 570 nm. Enzymatic activity was calculated using the following equation: adjusted Miller units=1000·Abs570/(OD600·t·V),
LasR assays were processed using the protocol for the substrate ortho-nitrophenyl-β-galactoside (ONPG) as previously described elsewhere.^53; and LasR antagonism assays were performed versus the EC50 for OdDHL (2 nM).
The selectivity of certain compounds for RhlR over LasR was measured using a LasR reporter strain (details above). Table 6 provides a comparison of selectivity of RhlR agonism over LasR agonism for exemplary compounds. Table 7 provides a comparison of selectivity of RhlR antagonism over LasR antagonism for exemplary compounds.

RhlR [4] = biological target: T1, RhlR; assay: E. coli RhlR reporter agonism assay (JLD271/pJN105R2/pSC11-rhlI*); format: cell-based, P. aeruginosa; conditions: for Maximum Activation (%) / % activation: E. coli reporter; for Maximum Activation (%): highest activation at any concentration, relative to 1 mM BHL; for % activation: compound at 10 μM, RhlR activity relative to 1 mM BHL
Procedure: as §1, §2
where t is the incubation time of substrate with lysate and V is the volume of culture lysed.
Because LuxR-type receptors are often unstable in solution, preventing the use of in vitro assays to directly assess small molecule agonism and antagonism, reporter gene assays represent a standard method for screening small-molecule libraries for LuxR-type receptor modulation. Previously reported strains for this purpose were used in the current study.^38 Synthetic N-butanoyl L-homoserine lactone (BHL), the native ligand of RhlR, was used as the positive control for receptor activation. Commonly, agonists are measured relative to maximum possible receptor activation within a particular assay medium;^40 because the dose-response curve of BHL is distinctly shallow in these RhlR reporters, a high concentration of BHL is required to maximally activate RhlR. In this study, activation of compounds was measured relative to that elicited by 1 mM BHL (the concentration of BHL used causes no aberrant growth effects in the reporter strain). […]

Row | Compound | % inhibition (10 μM) (RhlR [1]) [%] | % inhibition (1 mM) (RhlR [1]) [%] | Maximum Activation (%) (RhlR [2]) | EC50 (RhlR [3]) [µM] | Fold selectivity of RhlR agonists over LasR agonism (LasR; tested concentration 1 mM) [fold] | Fold selectivity of RhlR agonists over LasR agonism (LasR; tested concentration 10 μm) | Maximum Activation (%) (RhlR [4]) | % activation (RhlR [4]) [%] | EC50 (RhlR [4]; read-out: EC50 for RhlR activation, E. coli JLD271/pJN105R2/pSC11-rhlI*, concentrations ≤1 mM) [µM]
1 | CCCC(=O)N[C@H]1CCCC1=O | −37 | −82 | 95 | 3.82 | 11 | >36^b fold | 92 | – | –
2 | C=CCCC(=O)N[C@H]1CCOC1=O | −21 | −88 | – | – | 3.7 | >54^b fold | 90 | 54 | 7.93
3 | O=C(N[C@H]1CCOC1=O)C1CCCC1 | −52 | −95 | 106 | – | 4.4 | 12 fold | 100 | 76 | –
